According to publication PMC3688865:

Tested on: His-FimR (Streptococcus parasanguinis FW213)
Assay: EMSA
Conditions: 0.1 mM Mn2+, 5 mM Mg2+, two complexes evident at 40 uM His-FimR, slower one clear at 80 uM; 10 mM Tris pH 7.5, 50 mM KCl, 5 mM MgCl2, 0.1 mM MnCl2, 1 mM DTT, 5% glycerol, 250 ug/ml BSA, 50 ug/ml poly(dI-dC), 40 fmol probe in 20 ul, room temperature 20 min; recombinant protein; label: 3' biotin

TATTTTATAAATTAACTTGACTTAATTTTTTTATTTATGTATATTAATAGTAA (double strand) [pfim probe (pfimbox/S + pfimbox/AS)]
binding result: binds

Construct, isoform or probe ends are uncertain for at least one entry.
